# Values from PubChem BioAssay AID1259414 (Drosophila RNAi Screening Center, 2018).
# Assay: 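Host factors increasing or decreasing Wolbachia levels in cultured fly cells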 (primary screen)
# Cell system: Drosophila JW18 cells infected with Wolbachia
# Reagents: long dsRNA against Drosophila genes, 0.25 µg dsRNA per well of a 384-well plate
# Timing: 5 days
# Challenge: cells persistently infected with Wolbachia before knock-down; no added drug
# Measured: 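Automated imaging of bacterial rRNA staining divided by host cell count, reported as plate-normalised robust z-score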
# Direction: Wolbachia per cell robust z: higher = more Wolbachia per host cell than the plate typical
# Hit rule: 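Active if absolute robust z reaches 1.5 in two or more of three replicates, leaving out multi- or no-target dsRNAs, genes unexpressed in JW18 and A1 wells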
# The deposit covers about 24,000 reagents; below is an unselected part of those that have a named target and a result. Over the whole deposit, about 1,210 (5%) were called active. 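Inactive calls also include excluded dsRNAs with several or no targets, genes unexpressed in JW18, and well A1, regardless of score.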 A number with no mark means an inactive call.
gene,amplicon,"Wolbachia per cell robust z, rep 1","Wolbachia per cell robust z, rep 2","Wolbachia per cell robust z, rep 3"
Acp1 (GeneID 34052),DRSC01854,0.191,0.522,0.508
RpS21 (GeneID 33487),DRSC00833,-0.574,0.649,0.168
RpS21 (GeneID 33487),DRSC28234,1.75 (active),4.79,3.85
Lcp4 (GeneID 35820),DRSC07458,-0.991,-0.677,-2.24
Lcp4 (GeneID 35820),DRSC25194,0.601,0.227,0.691
nSMase (GeneID 38396),DRSC08237,0.677,0.354,0.756
nSMase (GeneID 38396),DRSC41397,-1.96,0.249,0.576
lbe (GeneID 42542),DRSC16985,0.575,0.854,0.378
lbe (GeneID 42542),DRSC23597,0.673,0.852,0.346
HP5 (GeneID 32090),DRSC19773,-3.41 (active),1.46,-2.31
HP5 (GeneID 32090),DRSC27040,-0.634,1.06,0.852
Inx6 (GeneID 31645),DRSC20579,-0.508,-1.83,-1.52
Inx6 (GeneID 31645),DRSC26299,0.195,-1.52,0.563
ppk16 (GeneID 3885612),DRSC02736,-0.452,1.84,0.27
COX6AL (GeneID 246451),DRSC21454,0.767,-0.0188,-0.177
Mmp2 (GeneID 35997),DRSC06698,-0.267 (active),-3.38,-2.04
Mmp2 (GeneID 35997),DRSC22024,-0.157,0.89,1.08
Mmp2 (GeneID 35997),DRSC25458,0.833,0.141,-1.9
Pex10 (GeneID 38182),DRSC08599,0.218,0.42,-0.51
Pex10 (GeneID 38182),DRSC22021,-0.832,-0.469,-0.15
Ir93a (GeneID 42471),DRSC15212,-0.558,0.831,-1.67
Ir93a (GeneID 42471),DRSC15213,-4.55,-0.898,-1.22
Ir93a (GeneID 42471),DRSC28149,-0.0566,0.754,-3.07
msi (GeneID 43087),DRSC17003,0.0366,0.315,0.185
Haspin (GeneID 3355064),DRSC37736,0.912,1.18,0.72
Haspin (GeneID 3355064),DRSC41450,-0.0184,-0.174,-0.147
bdwf (GeneID 42057),DRSC15532,0.311,-0.12,-5.23
CG18258 (GeneID 32708),DRSC19798,-1.99,0.212,-3.75
CG18258 (GeneID 32708),DRSC29203,-0.138,0.27,-0.318

No new results follow: entries from further up.
gene,amplicon,"Wolbachia per cell robust z, rep 1","Wolbachia per cell robust z, rep 2","Wolbachia per cell robust z, rep 3"
Haspin (GeneID 3355064),DRSC37736,0.912,1.18,0.72
Haspin (GeneID 3355064),DRSC41450,-0.0184,-0.174,-0.147
